In patent US20090305339A1, “Polypeptides With Laccase Activity” (VIALACTIA BIOSCIENCES (NZ) LIMITED, priority 2006, published 2009):

Experiment: Copper content by ICP-MS

B1: YfiH: DUF152 domain containing hypothetical protein from Escherichia coli, Gene Bank AAG57706, identified as laccase (FIG. 13) (protein, listed as Escherichia coli)
chain: MSKLIVPQWPLPKGVAACSSTRIGGVSLPPYDSLNLGAHCGDNPDHVEENRKRLFAAGNLPSKPVWLEQVHGKDVLNLTGEPYASKRADASYSNTPGRVCAVMTADCLPVLFCNRAGTEVAAAHAGWRGLCAGVLEETVSCFADNPENILAWLGPAIGPRAFEVGAEVREAFMAVDAEASTAFIQHGDKYLADIYQLARQRLANVGVEQIFGGDRCTYTENETFFSYRRDKTTGRMASFIWLI
modifications: Description of sequence amino acid sequence of protein YfiH with unknown function DUF152 from Escherichia coli (Gene Bank accession number AAG57706) (see Fig. 13)
With B1 the copper content was 4.0 molecules of copper per monomer.
